Results taken from the supplement of paper PMC9931576.
Substitutions are numbered along the chain they refer to. Human monoclonal antibodies against the spike receptor-binding domain (heavy:light variable regions). IC50 against pseudoviruses bearing the spike of naturally observed variants; lower = stronger; >10 µg/ml means not reached at the top dose. No active / inactive call. The stated detection limit is 0.0005 µg/ml; values near or below 0.001 µg/ml lie at the floor of the assay.

Columns and labels:
Test in all cases: pseudovirus neutralization IC50; higher = weaker neutralization
[1] = molecular target: SARS-CoV-2 Omicron BA.1 spike pseudovirus
Procedure: (§1)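 Single-round VSV luciferase pseudovirus mixed with antibody dilutions for 1 h and put on Huh-7 cells for about a day; IC50 from the dose curve.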

[2] = molecular target: SARS-CoV-2 Omicron BA.2 spike pseudovirus
Procedure: as §1

[3] = molecular target: SARS-CoV-2 Omicron BA.2.75 spike pseudovirus
Procedure: as §1

[4] = molecular target: SARS-CoV-2 Omicron BA.5 spike pseudovirus
Procedure: as §1

[5] = molecular target: SARS-CoV-2 Omicron BQ.1.1 spike pseudovirus
Procedure: as §1

[6] = molecular target: SARS-CoV-2 Omicron XBB spike pseudovirus
Procedure: as §1

[7] = molecular target: SARS-CoV-2 early D614G spike pseudovirus
Procedure: as §1

B1: BD55-6380 (protein)
chain 1: EAQLVESGGGLVKPGGSLRLSCAASGFIFSSDSMNWVRQAPGKGLEWVSSISRTSDLKFYADSVKGRFTISRDNAKNSLYLQMNSLRAEDTAVYYCAREVGSTRTWLDPWGQGTLVTVSS
chain 2: DIQMTQSPSSLSASVGDRVTITCRASQSISNYLNWYQQKPGKGPKLLIYAASNLQSGVPSRFSGSGSGTDFTLTISSLQPEDFATYYCQQSYVTPEFTFGPGTKVDIK
[1]
  pseudovirus neutralization IC50: > 10 µg/mL
[2]
  pseudovirus neutralization IC50: > 10 µg/mL
[3]
  pseudovirus neutralization IC50: > 10 µg/mL
[4]
  pseudovirus neutralization IC50: > 10 µg/mL
[5]
  pseudovirus neutralization IC50: > 10 µg/mL
[6]
  pseudovirus neutralization IC50: > 10 µg/mL
[7]
  pseudovirus neutralization IC50: > 10 µg/mL

B2: BD55-1232 (protein)
chain 1: EVQLVQSGAEVKKPGESLKISCKGSGYRFTSYWIGWVRQMPGKGLEWMGTISPDDSDTRYSPSFEGQVTISVDKSISTAYLHWSSLKASDTAMYYCARTGIPQYDAILTGYRWDFDCWGQGSLVTVSS
chain 2: EIVLTQSPATLSLSPGERATLSCRASQSVSSYLAWYQQKLGQAPRLLIYDASNRATGIPARFSGSGSGTDFTLTISSLEPEDFAVYYCQQRSNWSPGTFGQGTKLEIK
[1]
  pseudovirus neutralization IC50: > 10 µg/mL
[2]
  pseudovirus neutralization IC50: > 10 µg/mL
[3]
  pseudovirus neutralization IC50: > 10 µg/mL
[4]
  pseudovirus neutralization IC50: > 10 µg/mL
[5]
  pseudovirus neutralization IC50: > 10 µg/mL
[6]
  pseudovirus neutralization IC50: > 10 µg/mL
[7]
  pseudovirus neutralization IC50: 0.0749 µg/mL

B3: BD55-6346 (protein)
chain 1: QLQLQGSGPRLVKPSETLSLTCTVSGGSVSSSSYYWGWIRQPPGKGLEWIGSMYYSGTSYYHPSLTSRVTISIDTSKNQFSLQLSSVTAADTALYYCARGLYGYCTGANCYGDFYFDFWGQGTLVTVSS
chain 2: DIQMTQSPSTLSASVGDKVTIPCRASQSISSWLAWYQQKPGKAPKLLIYKASSLESGVPSRFSGSGSGTEFTLTISSLQPDDFATYYCQQYSTYPWTFGQGTKVEIE
[1]
  pseudovirus neutralization IC50: 1.64 µg/mL
[2]
  pseudovirus neutralization IC50: 2.3 µg/mL
[3]
  pseudovirus neutralization IC50: 3.3 µg/mL
[4]
  pseudovirus neutralization IC50: 1.51 µg/mL
[5]
  pseudovirus neutralization IC50: 6.46 µg/mL
[6]
  pseudovirus neutralization IC50: 3.66 µg/mL
[7]
  pseudovirus neutralization IC50: 3.13 µg/mL

B4: BD55-6382 (protein)
chain 1: QVQLVQSGAEVKKPGSSVKVSCKASGGSFSNYAINWMRQAPGQGLEWMGQIIPSFGIANYAQKFQGRVTITADESTSTAYMELTNLRSEDAALYYCARDPFSTLGVVDVPTTQGYFDPWGQGSLVTVSS
chain 2: EIVLTQSPGTLSLSPGERGTLSCRASQSVSTYLAWYQQKPGQAPTLLIYDASSRATGIPDRFSGSGSGTAFTLTISRLEPEDFAVYYCQQYGTSLRTFGQGTKLEIK
[1]
  pseudovirus neutralization IC50: > 10 µg/mL
[2]
  pseudovirus neutralization IC50: > 10 µg/mL
[3]
  pseudovirus neutralization IC50: > 10 µg/mL
[4]
  pseudovirus neutralization IC50: > 10 µg/mL
[5]
  pseudovirus neutralization IC50: > 10 µg/mL
[6]
  pseudovirus neutralization IC50: > 10 µg/mL
[7]
  pseudovirus neutralization IC50: 0.00478 µg/mL

B5: BD55-6361 (protein)
chain 1: QVQLVDSGGGVVQPGRSLRLSCAASKFTFSSYAMQWVRQAPGKGLEWVAVISSDGSDKYYADSVKGRFTISRDNSKNTLYLQMNSLRPEDTAVYYCARPRRTVTYHDAFDFWGQGTMVTVSS
chain 2: EIVLTQSPGTLSLSPGERATLSCRASQIFSSSYLAWYQQKVGQAPRLLMYDAFSRATGIPDRFSGSWSGTDFTLTISRLEPEDFAVYYCQYYGSSPITFGQGTRLEIK
[1]
  pseudovirus neutralization IC50: > 10 µg/mL
[2]
  pseudovirus neutralization IC50: > 10 µg/mL
[3]
  pseudovirus neutralization IC50: > 10 µg/mL
[4]
  pseudovirus neutralization IC50: > 10 µg/mL
[5]
  pseudovirus neutralization IC50: > 10 µg/mL
[6]
  pseudovirus neutralization IC50: > 10 µg/mL
[7]
  pseudovirus neutralization IC50: > 10 µg/mL

B6: BD55-6362 (protein)
chain 1: EVQLLESGGGLAPPGGSLRLACSASGFTFRTEAMSWLRQAPGKGLEWVSAITDSGVGTFYTDSVQGRFTISRDNSKNTLFLHMSGLRGEDTAVYYCAKEGGYCSGTSCYNWFDPWGPGTLVTVSS
chain 2: DIQMTQSPSSLSAYVGDRVTITCRASQRIGTHLNWYQQKPGKAPRLLIYAASSLQSGVPSRFSGSGSGTDFTLTISSLQPEDFATYHCQQSYETPQWTFGQGTKVEIK
[1]
  pseudovirus neutralization IC50: > 10 µg/mL
[2]
  pseudovirus neutralization IC50: > 10 µg/mL
[3]
  pseudovirus neutralization IC50: > 10 µg/mL
[4]
  pseudovirus neutralization IC50: > 10 µg/mL
[5]
  pseudovirus neutralization IC50: > 10 µg/mL
[6]
  pseudovirus neutralization IC50: > 10 µg/mL
[7]
  pseudovirus neutralization IC50: > 10 µg/mL

B7: BD55-6367 (protein)
chain 1: QVQLVESGGGVVQPGRSLRLSCAASGFTFSSHGMHWVRQTPGKGLEWVAVISSDGRGKFHADSVKGRFTISRDNSKNTLFLQLSSLRPEDTAVYYCARDSNTMIVEVLDYWGQGTLVTVSS
chain 2: DIQMTQSPSSLSASVGATVTITCRASQTISGYLNWYQQKPGKAPKLLIYAASSLQSGVPSRFSGSGSGTDFTLTISSLQPEDFATYYCQQSYTSPEYTFGQGTKLEIK
[1]
  pseudovirus neutralization IC50: > 10 µg/mL
[2]
  pseudovirus neutralization IC50: > 10 µg/mL
[3]
  pseudovirus neutralization IC50: > 10 µg/mL
[4]
  pseudovirus neutralization IC50: > 10 µg/mL
[5]
  pseudovirus neutralization IC50: > 10 µg/mL
[6]
  pseudovirus neutralization IC50: > 10 µg/mL
[7]
  pseudovirus neutralization IC50: 4.36 µg/mL

B8: BD55-6372 (protein)
chain 1: EVRLVESGGGVVQPGGSLRLSCAASEFTSDDYAMHWVRQAPGKALEWVSLISGADDTAYYADSVRGRFTISRGNSKNSLYLQMTSLRTEDTALYFCARDSHTSGFYYFDSWGQGALVTVSS
chain 2: B7 chain 2 with A17D, T18R, G31I, I48V, Y87F, S94T, E96G, Y97W
[1]
  pseudovirus neutralization IC50: > 10 µg/mL
[2]
  pseudovirus neutralization IC50: > 10 µg/mL
[3]
  pseudovirus neutralization IC50: > 10 µg/mL
[4]
  pseudovirus neutralization IC50: > 10 µg/mL
[5]
  pseudovirus neutralization IC50: > 10 µg/mL
[6]
  pseudovirus neutralization IC50: > 10 µg/mL
[7]
  pseudovirus neutralization IC50: > 10 µg/mL

B9: BD55-6349 (protein)
chain 1: EVRLVESGGGLVQPGGSLRLSCAASGFTVSTYDMHWVRQVTGKGLEWVSGIGTAGDTYYLGSVRGRFTISREKAKNSLYLQMNSLRAGDTAVYYCVRAPSYYYYYYMDVWGKGTTVTVSS
chain 2: EVVLTQSPGTLSMSPGERASLSCRASQSVTTNYVAWYQQKPGQAPRLLIYHASSRATGVPDRFSGSGSDTDFTLTISRLEPEDFAVYYCQLYGSSPMYTFGQGTRLEIK
[1]
  pseudovirus neutralization IC50: 3.24 µg/mL
[2]
  pseudovirus neutralization IC50: 2.74 µg/mL
[3]
  pseudovirus neutralization IC50: 3.66 µg/mL
[4]
  pseudovirus neutralization IC50: 2.12 µg/mL
[5]
  pseudovirus neutralization IC50: > 10 µg/mL
[6]
  pseudovirus neutralization IC50: > 10 µg/mL
[7]
  pseudovirus neutralization IC50: 2.51 µg/mL

B10: BD55-6350 (protein)
chain 1: EVHLLESGGGLVQPGGSLRLSCGASGLTFRNYAMTWVRQAPGKGLEWVSSISGVGGRAYHADSVKGRFAISRDNSKNTLYLQMNSLTAEDTATYYCAKDLSFDFWTGYDKLSHYEYGMDVWGQGTTVTVSS
chain 2: EIVLTQSPGTLSLSPGERATLSCRASQTISSTYIAWYQHKPGQAPRLLIYGASSRATGIPDRFSGSGSGTDFTLTISRLEPEDFAVYYCQQYGSSPPYTFGQGTKLQIK
[1]
  pseudovirus neutralization IC50: > 10 µg/mL
[2]
  pseudovirus neutralization IC50: > 10 µg/mL
[3]
  pseudovirus neutralization IC50: > 10 µg/mL
[4]
  pseudovirus neutralization IC50: > 10 µg/mL
[5]
  pseudovirus neutralization IC50: > 10 µg/mL
[6]
  pseudovirus neutralization IC50: > 10 µg/mL
[7]
  pseudovirus neutralization IC50: 4.7 µg/mL

B11: BD55-1233 (protein)
chain 1: QVHLVQSGAEVKKPGASVKVSCKASGYTFTSYGISWVRQAPGQGLECMGWISAYNDKTNYTQKFQGRVTMTTDTSTSTAYMELRSLRSDDTAVYYCARILNYYDRRGNYYAEEYFQYWGQGSLVIVSS
chain 2: QSVLTQPPSVSGAPGQRVTISCTGSSSNIGAGFDVHWYQQFQGTAPKLLIYGNTNRPSGVPDRFSVSKSDTSASLAITGLQPEDEADYFCQSYDSNLSSPVFGGGTKLTVL
[1]
  pseudovirus neutralization IC50: 2.04 µg/mL
[2]
  pseudovirus neutralization IC50: > 10 µg/mL
[3]
  pseudovirus neutralization IC50: > 10 µg/mL
[4]
  pseudovirus neutralization IC50: > 10 µg/mL
[5]
  pseudovirus neutralization IC50: > 10 µg/mL
[6]
  pseudovirus neutralization IC50: > 10 µg/mL
[7]
  pseudovirus neutralization IC50: 0.191 µg/mL

B12: BD55-6387 (protein)
chain 1: EVHLVESGGTLVQPGGSLRLSCAASGFIFTNYEMNWVRQAPGKGLEWVSYISRTGATMHYADSVKGRFTISRDNAKSSLYLQMNALRAEDTAVYYCASGLSNTWYDLVFWGQGTLVTVSS
chain 2: DIQMTQSPSSLSASVGDRVTITCRASQGIGNDLGWYQQKPGKAPQRLIFAASSLQSGAPSRFSGSGSGTEFTLTINSLQPEDSATYYCLQHNSYPPTFGQGTNLEIK
[1]
  pseudovirus neutralization IC50: > 10 µg/mL
[2]
  pseudovirus neutralization IC50: > 10 µg/mL
[3]
  pseudovirus neutralization IC50: > 10 µg/mL
[4]
  pseudovirus neutralization IC50: > 10 µg/mL
[5]
  pseudovirus neutralization IC50: > 10 µg/mL
[6]
  pseudovirus neutralization IC50: > 10 µg/mL
[7]
  pseudovirus neutralization IC50: 0.0742 µg/mL
